According to article PMC6099652:
The exact form of at least one protein or probe is not confirmed.

Test system: HlyU
Test: EMSA
Conditions: HlyU 25-300 nM, 3 nM probe, two shifts at higher concentrations; 1x buffer: 100 mM HEPES pH 7.6, 5 mM EDTA, 50 mM (NH4)2SO4, 5 mM DTT, 1% Tween 20, 150 mM KCl; 20 min at 25 ± 2 °C; 6% DNA retardation gel; recombinant protein; residues 1-97; protein details: N-terminal His6 (pProEx-HTb); label: 32P; probe letters rebuilt from the primers and the genome

Sequence: TCAAAAACGCTGCAATAAACATCGGCTAAGTAATTTAATTATGTCCAACAATGAAGGGTTGACGCTGATATGTATTCACTTTTATTTAAGTATCATCAGCGGTAATAGAGAACAATTTAAAGAAAATGCTAATTTAACAAAAACTAATAATTACAAAGATGAACTCGAAAAAATACAAAAAGCAAACAAAGTAAGAATAACCACAAAACATTCACAATTTAAAAACATAGAGAAAATAAAAACACCCGCCATTTTATTTGA (double strand) [PrtxA1 261 bp probe]
- binding result: binds
